Source: patent US20100009970A1, “COMPOSITIONS AND METHODS FOR TREATMENT OF VIRAL DISEASES” (Combinatorx (Singapore) Pte. Ltd., priority 2008, published 2010)
Where “and” joins values, the source holds several entries; their conditions need not be identical. Identical values can stand only once. Counter-ions that a name gives are not always drawn.

Test system: Huh7 cells expressing a subgenomic RNA replicon of Con1 (genotype 1b) sequence origin
Details: ratio CC50 / IC50

SMILES | Therapeutic index | TI
CC(C)C1CCC(c2ccc(Cl)c(Cl)c2)c2ccccc21 (centres unmarked) [Isopropyl Sertraline, 1-(3,4-dichlorophenyl)-4-isopropyl-1,2,3,4-tetrahydronaphthalene] | >5.40 | 
COC1CC[C@@H](c2ccc(Cl)c(Cl)c2)c2ccccc21 (stereo partly drawn) [Methoxy 4S-Sertraline] | >2.21 and >1.89 | 
CN(C)[C@H]1CC[C@@H](c2ccc(Cl)c(Cl)c2)c2ccccc21 [N,N-Dimethyl Sertraline, (1S,4S)-4-(3,4-dichlorophenyl)-N,N-dimethyl-1,2,3,4-tetrahydronaphthalen-1-amine] | 10.6 | 13.83
CN(C)[C@H]1CC[C@@H](c2ccc(Cl)c(Cl)c2)c2ccc(NC(=O)c3ccccc3)cc21 [N-((5S,8S)-5-(3,4-dichlorophenyl)-8-(dimethylamino)-5,6,7,8-tetrahydronaphthalen-2-yl)benzamide] | 1.33 | 
CN[C@H]1CC[C@@H](c2ccc(Cl)c(Cl)c2)c2ccc(NS(=O)(=O)c3cn(C)cn3)cc21 [N-((5S,8S)-5-(3,4-dichlorophenyl)-8-(methylamino)-5,6,7,8-tetrahydronaphthalen-2-yl)-1-methyl-1H-imidazole-4-sulfonamide] | 1.75 | 
CN[C@H]1CC[C@@H](c2ccc(Cl)c(Cl)c2)c2ccc(NS(=O)(=O)c3ccccc3)cc21 [N-((5S,8S)-5-(3,4-dichlorophenyl)-8-(methylamino)-5,6,7,8-tetrahydronaphthalen-2-yl)benzenesulfonamide] | 1.12 and 1.13 | 
CCCCS(=O)(=O)Nc1ccc2c(c1)[C@@H](NC)CC[C@H]2c1ccc(Cl)c(Cl)c1 [N-((5S,8S)-5-(3,4-dichlorophenyl)-8-(methylamino)-5,6,7,8-tetrahydronaphthalen-2-yl)butane-1-sulfonamide] | 0.6 | 
CN[C@H]1CC[C@@H](c2ccc(Cl)c(Cl)c2)c2ccc(NC(=O)C3CCCC3)cc21 [N-((5S,8S)-5-(3,4-dichlorophenyl)-8-(methylamino)-5,6,7,8-tetrahydronaphthalen-2-yl)cyclopentanecarboxamide] | 1.74 | 
CN[C@H]1CC[C@@H](c2ccc(Cl)c(Cl)c2)c2ccc(NS(=O)(=O)C3CC3)cc21 [N-((5S,8S)-5-(3,4-dichlorophenyl)-8-(methylamino)-5,6,7,8-tetrahydronaphthalen-2-yl)cyclopropanesulfonamide] | 1.32 | 
CC(=O)NCc1ccc2c(c1)[C@@H](N(C)C)CC[C@H]2c1ccc(Cl)c(Cl)c1 [N-(((5S,8S)-5-(3,4-dichlorophenyl)-8-(dimethylamino)-5,6,7,8-tetrahydronaphthalen-2-yl)methyl)acetamide] | 4.28 | 
CN[C@H]1CC[C@@H](c2ccc(Cl)c(Cl)c2)c2ccc(CNS(C)(=O)=O)cc21 [N-(((5S,8S)-5-(3,4-dichlorophenyl)-8-(methylamino)-5,6,7,8-tetrahydronaphthalen-2-yl)methyl)methanesulfonamide] | 3.45 | 3.45
CN(C1CC1)[C@H]1CC[C@@H](c2ccc(Cl)c(Cl)c2)c2ccccc21 [N-Cyclopropyl Sertraline, (1S,4S)—N-cyclopropyl-4-(3,4-dichlorophenyl)-N-methyl-1,2,3,4-tetrahydronaphthalen-1-amine] | >3.4 | 
CN(CCO)[C@H]1CC[C@@H](c2ccc(Cl)c(Cl)c2)c2ccccc21 [N-Ethanol Sertraline, 2-(((1S,4S)-4-(3,4-dichlorophenyl)-1,2,3,4-tetrahydronaphthalen-1-yl)(methyl)amino)ethanol] | 6.38 | 
CN[C@H]1CC[C@@H](c2ccc(Cl)c(Cl)c2)c2ccc([N+](=O)[O-])cc21 [Nitro Sertraline, (1S,4S)-4-(3,4-dichlorophenyl)-N-methyl-7-nitro-1,2,3,4-tetrahydronaphthalen-1-amine] | 1.24 | 1.24
CN[C@H]1CC[C@@H](c2ccc(Cl)c(Cl)c2)c2ccc(C(=O)Nc3ccccc3)cc21 [Sertraline A-Ring Benzamide, (5S,8S)-5-(3,4-dichlorophenyl)-8-(methylamino)-N-phenyl-5,6,7,8-tetrahydronaphthalene-2-carboxamide] | 1.42 | 
CN[C@H]1CC[C@@H](c2ccc(Cl)c(Cl)c2)c2ccc(CO)cc21 [Sertraline A-Ring Ethanol, ((5S,8S)-5-(3,4-dichlorophenyl)-8-(methylamino)-5,6,7,8-tetrahydronaphthalen-2-yl)methanol] | 4.97 | 4.97
CN[C@H]1CC[C@@H](c2ccc(Cl)c(Cl)c2)c2ccc(CN)cc21 [Sertraline A-Ring Methanamine, (1S,4S)-7-(aminomethyl)-4-(3,4-dichlorophenyl)-N-methyl-1,2,3,4-tetrahydronaphthalen-1-amine] | 2.32 | 
CNC(=O)c1ccc2c(c1)[C@@H](NC)CC[C@H]2c1ccc(Cl)c(Cl)c1 [Sertraline A-Ring Methyl Carboxamide, (5S,8S)-5-(3,4-dichlorophenyl)-N-methyl-8-(methylamino)-5,6,7,8-tetrahydronaphthalene-2-carboxamide] | 3.93 | 

SMILES | Therapeutic index | TI
CN[C@H]1CC[C@@H](c2ccc(Cl)c(Cl)c2)c2ccc(CSC)cc21 [Sertraline A-Ring Methylsulfide, (1S,4S)-4-(3,4-dichlorophenyl)-N-methyl-7-(methylthiomethyl)-1,2,3,4-tetrahydronaphthalen-1-amine] | 1.48 | 
CN[C@H]1CC[C@@H](c2ccc(Cl)c(Cl)c2)c2ccc(N(C)C)cc21 [Sertraline A-Ring N,N-Dimethylamine, (1S,4S)-4-(3,4-dichlorophenyl)-N1,N7,N7-trimethyl-1,2,3,4-tetrahydronaphthalene-1,7-diamine] | 1.76 and 1.77 | 
CN[C@H]1CC[C@@H](c2ccc(Cl)c(Cl)c2)c2ccc(NC(=O)c3ccccc3)cc21 [Sertraline A-Ring Reverse Benzamide, N-((5S,8S)-5-(3,4-dichlorophenyl)-8-(methylamino)-5,6,7,8-tetrahydronaphthalen-2-yl)benzamide] | 1.25 | 
CN[C@H]1CC[C@@H](c2ccc(Cl)c(Cl)c2)c2ccc(NC(C)=O)cc21 [Sertraline A-Ring Reverse Carboxamide, N-((5S,8S)-5-(3,4-dichlorophenyl)-8-(methylamino)-5,6,7,8-tetrahydronaphthalen-2-yl)acetamide] | 13.14 and 12.55 | 
CCCCC(=O)Nc1ccc2c(c1)[C@@H](NC)CC[C@H]2c1ccc(Cl)c(Cl)c1 [Sertraline A-Ring Reverse Pentanamide, N-((5S,8S)-5-(3,4-dichlorophenyl)-8-(methylamino)-5,6,7,8-tetrahydronaphthalen-2-yl)pentanamide] | 1.18 and 1.17 | 
CN[C@H]1CC[C@@H](c2ccc(Cl)c(Cl)c2)c2ccc(C(=O)OC)cc21 [Sertraline A-ring Methyl Ester, (5S,8S)-methyl 5-(3,4-dichlorophenyl)-8-(methylamino)-5,6,7,8-tetrahydronaphthalene-2-carboxylate] | 1.5 | 1.5
CN[C@H]1CC[C@@H](c2ccc(Cl)c(Cl)c2)c2ccc(C(=O)Nc3ccccn3)cc21 [Sertraline A-ring Pyridine Carboxamide, (5S,8S)-5-(3,4-dichlorophenyl)-8-(methylamino)-N-(pyridin-2-yl)-5,6,7,8-tetrahydronaphthalene-2-carboxamide] | 1.59 | 
CNC1CCC(c2ccc(Cl)c(Cl)c2)c2ccsc21 (centres unmarked) [Sertraline A-ring Thiophene] | 2.28 | 
CN[C@H]1CC[C@@H](c2ccc(Cl)c(Cl)c2)c2ccc(N)cc21 [Sertraline Aniline, (1S,4S)-4-(3,4-dichlorophenyl)-N1-methyl-1,2,3,4-tetrahydronaphthalene-1,7-diamine] | 1.45 | 1.45
CNC1CCC(c2ccc(C(F)(F)F)cc2)c2ccccc21 (centres unmarked) [Sertraline B-Ring para-Trifluoromethane, N-methyl-4-(4-(trifluoromethyl)phenyl)-1,2,3,4-tetrahydronaphthalen-1-amine] | 1.06 | 1.06
CNC1CCC(c2cccs2)c2ccccc21 (centres unmarked) [Sertraline B-ring 2-Thiophene] | 1.69 | 
CNC1CCC(c2ccc(Oc3ccccc3)cc2)c2ccccc21 (centres unmarked) [Sertraline B-ring para-Phenoxy, N-methyl-4-(4-phenoxyphenyl)-1,2,3,4-tetrahydronaphthalen-1-amine] | 1.95 | 1.32
CN[C@H]1CC[C@@H](c2ccc(Cl)c(Cl)c2)c2ccccc21 [Sertraline HCL, Sertraline HCl, reference compound] |  | 2.55
CN[C@H]1CC[C@@H](c2ccc(Cl)c(Cl)c2)c2ccc(I)cc21 [Sertraline Iodide, (1S,4S)-4-(3,4-dichlorophenyl)-7-iodo-N-methyl-1,2,3,4-tetrahydronaphthalen-1-amine] | 1.34 | 1.34
CN[C@H]1CC[C@@H](c2ccc(Cl)c(Cl)c2)c2ccc(S(=O)(=O)N(C)C)cc21 [Sertraline N,N-dimethylsulfonamide, (5S,8S)-5-(3,4-dichlorophenyl)-N,N-dimethyl-8-(methylamino)-5,6,7,8-tetrahydronaphthalene-2-sulfonamide] | 1.33 | 1.33
CN[C@H]1CC[C@@H](c2ccc(Cl)c(Cl)c2)c2ccc(C#N)cc21 [Sertraline Nitrile, (5S,8S)-5-(3,4-dichlorophenyl)-8-(methylamino)-5,6,7,8-tetrahydronaphthalene-2-carbonitrile] | 3.08 | 3.08
CN[C@H]1CC[C@@H](c2ccc(Cl)c(Cl)c2)c2ccc(S(=O)(=O)NCCO)cc21 [Sertraline Sulfonamide Ethanol, (5S,8S)-5-(3,4-dichlorophenyl)-N-(2-hydroxyethyl)-8-(methylamino)-5,6,7,8-tetrahydronaphthalene-2-sulfonamide] | 1.69 | 1.69
